{"source": "PubChem BioAssay AID504761 | Drosophila RNAi Screening Center, 2011", "screen": "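Insect host genes that dengue virus relies on to spread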 (primary screen)", "cells": "D.Mel-2 cells from Drosophila", "reagent": "long dsRNA against Drosophila genes", "treatment": "infection with dengue virus type 2; dose and infection time not stated", "detection": "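Cells stained for dengue envelope protein and imaged; percent of infected cells per well on duplicate plates, ranked by infection, with stained nuclei counted for cell number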", "direction": "infection score: higher = more virus-infected cells; cell count: higher = more cells in the well", "active means": "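Low infection ranks in the two replicates (chance level up to 0.065) followed by a retest with a 1.5-fold or larger significant decrease, p below 0.05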", "calls": "active = confirmed: knock-down lowers infection; inactive = not picked or not confirmed", "note": "In all, the deposit lists about 22,000 reagents; below is an unselected part of those with a known target gene and a result. In the full data, 116 (0.52%) were called active. 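Calls depend on retest data that are not deposited; infection was ranked per plate without normalising between plates; the unit of the infection score is not given.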 The raw values are shown without normalisation. Unmarked entries are inactive. Further read-outs or replicates are left out here. Not given: the amount of reagent, the time to read-out."}
{"gene knocked down": "CG14324", "dsRNA": "DRSC14803", "infection score, replicate 1": 22.1, "cell count, replicate 1": 4281}
{"gene knocked down": "CG14324", "dsRNA": "DRSC24292", "infection score, replicate 1": 4.06, "cell count, replicate 1": 6596}
{"gene knocked down": "CG31633", "dsRNA": "DRSC02275", "infection score, replicate 1": 5.14, "cell count, replicate 1": 5702}
{"gene knocked down": "CG31633", "dsRNA": "DRSC27022", "infection score, replicate 1": 13.2, "cell count, replicate 1": 6521}
{"gene knocked down": "Hn (Henna)", "dsRNA": "DRSC11184", "infection score, replicate 1": 8.42, "cell count, replicate 1": 6425}
{"gene knocked down": "PK2-R2 (Pyrokinin 2 receptor 2)", "dsRNA": "DRSC16448", "infection score, replicate 1": 2.78, "cell count, replicate 1": 6617}
{"gene knocked down": "PK2-R2 (Pyrokinin 2 receptor 2)", "dsRNA": "DRSC25536", "infection score, replicate 1": 9.24, "cell count, replicate 1": 5933}
{"gene knocked down": "plx (pollux)", "dsRNA": "DRSC12260", "infection score, replicate 1": 3.01, "cell count, replicate 1": 6276}
{"gene knocked down": "plx (pollux)", "dsRNA": "DRSC12385", "infection score, replicate 1": 20.5, "cell count, replicate 1": 6471}
{"gene knocked down": "plx (pollux)", "dsRNA": "DRSC22683", "infection score, replicate 1": 4.96, "cell count, replicate 1": 7016}
{"gene knocked down": "plx (pollux)", "dsRNA": "DRSC28545", "infection score, replicate 1": 5.56, "cell count, replicate 1": 1025}
{"gene knocked down": "l(1)G0289 (lethal (1) G0289)", "dsRNA": "DRSC18215", "infection score, replicate 1": 6, "cell count, replicate 1": 6648}
{"gene knocked down": "l(1)G0289 (lethal (1) G0289)", "dsRNA": "DRSC29200", "infection score, replicate 1": 8.66, "cell count, replicate 1": 1132}
